US11312727B1, “Macrocyclic flu endonuclease inhibitors” (Janssen BioPharma, Inc., priority 2018, dated 2022)

Columns and labels:
[1] = test system: Influenza strain A549 A/WSN/33 (H1N1); test: Influenza antiviral assay (A549 cells infected with A/WSN/33 (H1N1), neuraminidase fluorescence read-out); settings: read-out: A549_A(H1N1) EC50, influenza A/WSN/33 (H1N1), 20 hours incubation
[2] = test system: Human lung carcinoma A549 cells; test: Cytotoxicity of uninfected parallel cultures (CellTiter-Glo)

Structure (SMILES) | EC50 [1] | CC50 [2]
O=C1c2c(O)c(=O)ccn2N2CN1C1(/C=C/COc3c(ccc(F)c3F)C2c2ccccn2)CCC1 (centres unmarked) | 0.0029 µM | > 0.1 µM
O=C1c2c(O)c(=O)ccn2N2CN1CC/C=C\CCOc1ccccc1C2c1ccccc1 (centres unmarked) | 0.047 µM | > 2 µM
O=C1c2c(O)c(=O)ccn2N2CN1CCC/C=C/Cc1ccccc1C2c1ccccn1 (centres unmarked) | 0.142 µM | > 20 µM
O=C1c2c(O)c(=O)ccn2N2CN1C/C=C\COc1ccccc1C2c1ccccn1 (single isomer, unassigned) [Compound 20A] | 0.093 µM | > 2 µM
O=C1c2c(O)c(=O)ccn2N2CN1C/C=C\COc1ccccc1C2c1ccccn1 (single isomer, unassigned) [Compound 20B] | 10 µM | > 2 µM
O=C1c2c(O)c(=O)ccn2N2CN1C/C=C\COc1cc(F)ccc1C2c1ccccc1 (single isomer, unassigned) [Compound 42A] | > 1 µM | > 2 µM
O=C1c2c(O)c(=O)ccn2N2CN1C/C=C\COc1cc(F)ccc1C2c1ccccc1 (single isomer, unassigned) [Compound 42B] | 0.006 µM | > 2 µM
